Results of unrelated studies side by side (data: NIAID ChemDB).

Common to all: tests in culture; agent: HIV-1; cell line: TZM-bl; measure: EC50

ECn: concentration that inhibits the pathogen or its effect by n%. An empty or dashed field is not shown. Rows are shuffled and stem from different studies.

structure	strain or isolate	mutations	method	setting	value
Cc1c(-c2ccc(-c3ccccc3F)cc2)nc2ccc(F)cc2c1C(=O)O	LAI	-	luciferase	-	40 µM
CCCCCOC(=O)C[C@H](NP(=O)(CO[C@@H](CF)Cn1ccc2c(=O)[nH]c(N)nc21)N[C@@H](CC(=O)OCCCCC)C(=O)OCCCCC)C(=O)OCCCCC	NL4-3	-	luciferase	-	>4 µM
Fc1ccc(/C=C/c2cc(Cl)c3ccccc3n2)c(C(F)(F)F)c1	UG070	-	luminescence	-	75.78 µM
COc1cc([C@H](Cc2ccccc2)n2cc(C(N)=O)c(=O)cc2Cc2ccccc2)oc(=O)c1	SF162	-	XTT / absorbance	-	>50 µM
COc1cc(OC)nc(N2C(=O)CSC2c2c(Cl)cccc2[N+](=O)[O-])n1	N119	-	luciferase	-	1.22 µg/mL
Nc1nc2c(c(F)cn2C[C@@H](CF)OCP(=O)(O)O)c(=O)[nH]1	BaL	-	luciferase	-	>100 µM
COC(=O)c1ccccc1C(=O)Nc1nnc(-c2ccc(OC)cc2)s1	NL4-3	-	luminescence	-	10 µM
Cc1cc(C)nc(N2C(=O)CSC2c2c(Cl)cccc2[N+](=O)[O-])c1	N119	-	luciferase	-	0.65 µg/mL
COC(=O)[C@@H](C)CC(=O)NC(=O)c1cn([C@@H](Cc2ccccc2)c2cc(OC)cc(=O)o2)c(Cc2ccccc2)cc1=O	SF162	-	XTT / absorbance	-	>50 µM
Clc1cc(/C=C/c2ccco2)nc2ccccc12	VB59	-	luminescence	-	82.52 µM
Cc1cn([C@H]2C[C@H](N=[N+]=[N-])[C@@H](CO)O2)c(=O)[nH]c1=O	CH119	-	p24 / ELISA	-	0.00363 µM
C1=NCCNCCNCCN=C2CCCc3ccc1nc32.[Cl][Mn][Cl]	NL4-3	-	luminescence	-	1.1 µM
Nc1nc(=O)n([C@@H]2CS[C@H](CO)O2)cc1F	LAI	E138G	-	-	0.5 µM
COc1cccc2ccc(-c3nnc(-c4ccncc4)o3)nc12	UG070	-	luminescence	-	89.32 µM
[Cl][Zn][Cl].c1c2c3nc4c1CCC[C@@H]4NCCNCCNCCN[C@H]3CCC2	NL4-3	-	luminescence	-	0.27 µM
Cc1ccc(-c2ccc3c(c2)C=C(C(=O)Nc2ccc(C[N+](C)(C)C4CCOCC4)cc2)CCC3)cc1	-	-	entry / luminescence	-	3.65 µM
C[C@H](Cn1cnc2c(N)ncnc21)OCP(=O)(O)O	LAI	E138K	-	-	6.6 µM
C/C1=C/C[C@@H](/C(C)=C/c2csc(C)n2)OC(=O)C[C@H](O)C(C)(C)C(=O)[C@H](C)[C@@H](O)[C@@H](C)CCC1	LAI	-	-	-	0.0005 µM
C[C@@H]1CCCC[C@H]1Oc1cc(CCc2ccccc2)[nH]c(=O)c1I	SF33	-	ELISA	-	0.014 µM
Cc1cn([C@H]2C[C@H](N=[N+]=[N-])[C@@H](CO)O2)c(=O)[nH]c1=O	NL4-3	-	p24 / luciferase	pseudotyped	0.14 µg/mL
CCOC(=O)C(O)(c1c[nH]c2ccc(F)cc12)C(F)(F)F	IIIB	-	-	-	0.308 µM
Nc1nc2c(ccn2C[C@H](CF)OCP(=O)(O)O)c(=O)[nH]1	BaL	-	luciferase	-	>100 µM
O=C(NC(=S)Nc1ccc(Br)cn1)c1ccccc1[N+](=O)[O-]	NL4-3	-	p24 / luciferase	pseudotyped	0.48 µM
CCCCCOC(=O)C[C@H](NP(=O)(CO[C@@H](CF)Cn1ccc2c(=O)[nH]c(N)nc21)Oc1ccccc1)C(=O)OCCCCC	NL4-3	-	luciferase	-	9.28 µM
CCCCCCCCCCCCCCC[C@@H](O)[C@@H](N)CO	HXB2	-	luciferase	-	>1.5 µM
Clc1cc(/C=C/c2ccc3ccccc3c2)nc2ccccc12	UG070	-	luminescence	-	19.32 µM
O=S(=O)(OC1/C(=C/c2ccco2)CNC/C1=C\c1ccco1)c1ccccc1	HXB2	-	luciferase / single cycle	-	>101 µM
O=C1O[C@@](CCl)(c2ccccc2)c2ccccc21	IIIB	-	luciferase	-	1.2 µM
CCCCCn1c(=O)c2c(nc3n2CCCN3c2ccc(Oc3ccccc3)cc2)n(C)c1=O	NL4-3	-	β-galactosidase / absorbance	-	>20 µM
Fc1ccc(N=C2/C(=C/c3ccco3)CNC/C2=C\c2ccco2)cc1	HXB2	-	luciferase / single cycle	-	>115 µM
Cc1cn([C@H]2C[C@H](N=[N+]=[N-])[C@@H](CO)O2)c(=O)[nH]c1=O	UG070	-	luciferase	-	0.027 µM
Nc1nc2c(ccn2C[C@@H](CF)OCP(=O)(O)O)c(=O)[nH]1	NL4-3	-	luciferase	-	>100 µM
Cc1cn([C@H]2C[C@H](N=[N+]=[N-])[C@@H](CO)O2)c(=O)[nH]c1=O	NL4-3	-	luciferase	-	0.004 µg/mL
Cc1ccc(/C=C/c2cc(Cl)c3ccccc3n2)cc1	UG070	-	luminescence	-	10.01 µM
Cc1ccc([C@@]2(CCl)OC(=O)c3ccccc32)cc1	IIIB	-	luciferase	-	12 µM
CC(=O)c1ccc2ccc(/C=C/c3cc(O)c(O)c(O)c3)nc2c1O	-	-	luminescence	-	0.3 µM
Clc1cc(/C=C/c2ccc(N3CCCCC3)cc2)nc2ccccc12	VB59	-	luminescence	-	109 µM
CC1=CC2=C(C(C)C)C(O)C(=O)/C(=C\N[C@@H](C(=O)O)C(C)C)C2C(O)=C1c1c(C)cc2c(C(C)C)c(O)c(O)c(C=N[C@H](C(=O)O)C(C)C)c2c1O.[Na+].[Na+]	NL4-3	-	luciferase / reporter gene	-	0.17 µM
O=C1OC(C(Cl)c2ccccc2)c2ccccc21	IIIB	-	luciferase	-	30.9 µM
CO[C@H]1CCCC[C@@H](c2ccccc2)OC(=O)C(C)[C@@]2(O)OC([C@@H](C)[C@H](O)[C@H]2OC)[C@@H](C)/C=C/[C@H]1OC	LAI	-	luciferase	-	0.15 µM
CC(C)OC(=O)OCOP(=O)(CO[C@H](C)Cn1cnc2c(N)ncnc21)OCOC(=O)OC(C)C	NL4-3	-	luciferase / reporter gene	-	0.00119 µM
CCC(Cl)C1(c2ccc(F)cc2)OC(=O)c2ccc(C)cc21	IIIB	-	luciferase	-	126 µM
COC[C@@H](c1ccc(C(F)(F)F)cc1)N1CCN(C2(C)CCN(C(=O)c3c(C)ncnc3C)CC2)C[C@@H]1C	-	M518V F519I	luciferase	-	0.0014 µM
Cc1nnc(C(C)C)n1C1C[C@H]2CC[C@@H](C1)N2CC[C@H](NC(=O)C1CCC(F)(F)CC1)c1ccccc1	JR-FL	-	luciferase	-	0.00598 µM
CCOC(=O)C(O)(c1c[nH]c2ccc(C=O)cc12)C(F)(F)F	IIIB	-	-	-	4.487 µM
Cc1cn([C@H]2C[C@H](N=[N+]=[N-])[C@@H](CO)O2)c(=O)[nH]c1=O	BCF02	-	luciferase / luminescence	-	0.00617 µM
OCCc1ccc(O)c(O)c1	NL4-3	-	luciferase	-	35.4 µM
CC(C)OC(=O)OCOP(=O)(CO[C@H](C)Cn1cnc2c(N)ncnc21)OCOC(=O)OC(C)C	NL4-3	-	luciferase	-	0.027 µM
CC1=CC2=C(C(C)C)C(O)C(=O)/C(=C\N[C@H](CC(C)C)C(=O)O)C2C(O)=C1c1c(C)cc2c(C(C)C)c(O)c(O)c(C=N[C@@H](CC(C)C)C(=O)O)c2c1O.[Na+].[Na+]	IIIB	-	p24 / ELISA / antigen	-	0.71 µM
CC/C=C(\C)C[C@H](C)[C@H](O)[C@@H](C)[C@H]1O[C@@]2(C[C@@H](OC)[C@H]1C)O[C@H]([C@@H](C)[C@@H](O)[C@@H](C)/C=C/C=C/C=C/C=C/C=C/[C@@H](CC(=O)O)OC)[C@@H](C)C[C@@H]2O	LAI	-	-	-	0.007 µM
O=C1O[C@](CCl)(c2ccccc2)c2ccccc21	IIIB	-	luciferase	-	15.4 µM
O=C1CCCN1CCCN1CC(=O)N2CC(N(CCOc3ccccc3)S(=O)(=O)c3cccc(F)c3)C[C@H]2C1=O	PLAI-JRFL WILD TYPE	-	luciferase	-	0.425 µM
CC[C@H]1CC[C@@H](O)[C@@H](OC)CCCC[C@@H](c2ccccc2)OC(=O)[C@@H](C)[C@@]2(O)O[C@@H]1[C@@H](C)[C@H](O)[C@H]2OC	LAI	-	-	-	0.3 µM
Cc1cn([C@H]2C[C@H](N=[N+]=[N-])[C@@H](CO)O2)c(=O)[nH]c1=O	UG070	-	luminescence	-	0.027 µM
Fc1ccc(N=C2/C(=C/c3ccco3)CNC/C2=C\c2ccco2)c(F)c1	HXB2	-	luciferase / single cycle	-	>109 µM
[Cl][Mn][Cl].c1c2c3nc4c1CCC[C@@H]4NCCNCCNCCN[C@H]3CCC2	NL4-3	-	luminescence	-	1.6 µM
Cc1ccnc2c1NC(=O)c1cccnc1N2C1CC1	NL4-3	-	MTT	-	1.64 µM
CC(=O)c1ccc2ccc(/C=C/c3ccc(O)c(O)c3)nc2c1O	-	-	luminescence	-	2.4 µM
CC[C@@H](C)[C@@H](N/C=C1\C(=O)C(O)C(C(C)C)=C2C=C(C)C(c3c(C)cc4c(C(C)C)c(O)c(O)c(C=N[C@H](C(=O)O)[C@@H](C)CC)c4c3O)=C(O)C21)C(=O)O.[Na+].[Na+]	NL4-3	-	luciferase / reporter gene	-	0.1 µM
O=C(O)C(=O)/C=C(\O)c1cn(Cc2ccc(F)cc2)c2ccc(Br)cc12	-	-	luciferase	-	0.13 µM
CCC(Cl)C1(c2ccc(F)cc2)OC(=O)c2c(Br)c(Br)c(Br)c(Br)c21	IIIB	-	luciferase	-	126 µM
Fc1ccccc1N=C1/C(=C/c2ccco2)CNC/C1=C\c1ccco1	HXB2	-	luciferase / single cycle	-	>114.8 µM
Cc1cc(Cl)cc(C)c1Oc1nn(Nc2ccc(Cl)cc2)c(=O)c2ccccc12	BaL	-	luciferase	-	>10 µM
[Cl][Fe]([Cl])[Cl].c1cc2c3nc1CNCCNCCNCCNC3CCC2	NL4-3	-	luminescence	-	0.25 µM
Fc1ccc(/C=C/c2cc(Cl)c3ccccc3n2)c(F)c1	VB59	-	luminescence	-	>166 µM
CCCCCOC(=O)C[C@H](NP(=O)(CO[C@H](CF)Cn1cnc2c(N)ncnc21)Oc1ccccc1)C(=O)OCCCCC	BaL	-	luminescence	-	0.0042 µM
CCOC(=O)C(O)(c1c[nH]c2cc(F)ccc12)C(F)(F)F	IIIB	-	-	-	0.147 µM
CC(=O)c1ccc2ccc(C(=O)Nc3ccc(O)c(O)c3)nc2c1O	-	-	luminescence	-	0.9 µM
c1cc2c3nc1CNCCNCCNCCNC3CCC2	NL4-3	-	luminescence	-	0.86 µM
COC(=O)C(O)(c1cn(C(=O)OC(C)(C)C)c2ccccc12)C(F)(F)F	IIIB	-	-	-	>22.2 µM
O=C(O)[C@@H](CS(=O)(=O)c1ccc([N+](=O)[O-])cc1)NC(=O)C1(c2ccc3ccccc3c2)CCN(Cc2ccc3ccccc3c2)CC1	NL4-3	-	luciferase	pseudotyped	16.96 µM
C[C@H](Cn1cnc2c(N)ncnc21)OCP(=O)(O)O	NL4-3	X4	luciferase	-	7.1 µM
[Cl][Fe]([Cl])[Cl].c1cc2nc(c1)CNCCNCCNCCNC2	NL4-3	-	luminescence	-	2.8 µM
O=C1O[C@@](CCl)(c2ccc(F)cc2)c2ccccc21	IIIB	-	luciferase	-	1.7 µM

A second listing of 5 rows from above:

Fc1ccc(/C=C/c2cc(Cl)c3ccccc3n2)c(C(F)(F)F)c1 ; strain or isolate: UG070 ; method: luminescence ; value: 75.78 µM
Cc1cn([C@H]2C[C@H](N=[N+]=[N-])[C@@H](CO)O2)c(=O)[nH]c1=O ; strain or isolate: UG070 ; method: luminescence ; value: 0.027 µM
O=C(O)C(=O)/C=C(\O)c1cn(Cc2ccc(F)cc2)c2ccc(Br)cc12 ; method: luciferase ; value: 0.13 µM
Cc1cn([C@H]2C[C@H](N=[N+]=[N-])[C@@H](CO)O2)c(=O)[nH]c1=O ; strain or isolate: NL4-3 ; method: p24 / luciferase ; setting: pseudotyped ; value: 0.14 µg/mL
Cc1cn([C@H]2C[C@H](N=[N+]=[N-])[C@@H](CO)O2)c(=O)[nH]c1=O ; strain or isolate: NL4-3 ; method: luciferase ; value: 0.004 µg/mL